The values that follow are results of earlier work, collected in patent publication US20060148895A1, “New composition use and method” (priority 2002, published 2006).

For this data set the following is noted: concentrated, cited from earlier work.

Take `CC(O)CO` (centres unmarked) [Propylene glycol]: the Effect on polycarbonate result (7 days of constant exposure at 50° C.) is reported as “some effect”. Besides, the Damage on polycarbonate entry (30 days of constant exposure at 20° C.) was “little or no damage”.
